A mixed list of measured activities; the numbers were collected in NIAID ChemDB.

Shared fields: growth or infection tests; agent: Mycobacterium bovis BCG

A number after MIC or MFC names an inhibition level or a share of isolates. Blank or dashed fields: not listed here. Lines come from different laboratories, so protocols vary.

CCn1cc(/C=N/Nc2nncs2)c2ccccc21 ; method: broth dilution ; conditions: 48 h ; read-out: MIC100 ; strain: 1173P2 ; result: 250 µg/mL
COC(=O)Cc1cccc2[nH]c3ccc(Cl)cc3c12 ; method: resazurin / visual reading / absorbance ; read-out: MIC99 ; result: >500 µg/mL
NNC(=S)N/N=C/c1cn(Cc2ccccc2Cl)c2ccccc12 ; method: broth dilution ; conditions: 24 h ; read-out: MIC100 ; strain: 1173P2 ; result: 500 µg/mL
O=C(OC(=O)c1ccccc1)c1ccccc1 ; method: resazurin ; conditions: 48 h ; read-out: MIC ; strain: 1173P2 ; result: 500 µg/mL
COc1ccc(-c2c(C)c(C(=O)O)nc(-c3ccc4c(O)c(OC)c5c(c4n3)=NC(C)(C)N=5)c2N)c(O)c1OC ; read-out: MIC ; strain: Pasteur ; result: 50 µM
O=C(O)Cc1ccc2[nH]c3cc(Cl)ccc3c2c1 ; method: resazurin / visual reading / absorbance ; read-out: MIC99 ; result: 125 µg/mL
CCCCn1cc(/C=N/Nc2nncs2)c2ccccc21 ; method: broth dilution ; conditions: 24 h ; read-out: MIC100 ; strain: 1173P2 ; result: 3.91 µg/mL
C#CC(C)(O)CC ; method: resazurin ; conditions: 48 h ; read-out: MIC ; strain: 1173P2 ; result: 125 µg/mL
COC(=O)Cc1ccc2[nH]c3cc(Cl)ccc3c2c1 ; method: resazurin / visual reading / absorbance ; read-out: MIC99 ; result: 31.3 µg/mL
COc1ccc(Cn2cc(/C=N/NC(=S)NN)c3ccccc32)cc1 ; method: broth dilution ; conditions: 48 h ; read-out: MIC100 ; strain: 1173P2 ; result: >500 µg/mL
CC1COc2c(N3CCN(C)CC3)c(F)cc3c(=O)c(C(=O)O)cn1c23 ; read-out: MIC ; strain: Pasteur ; result: 1.56 µM
O=C(O)Cc1ccc2[nH]c3ccc(Cl)cc3c2c1 ; method: resazurin / visual reading / absorbance ; read-out: MIC99 ; result: 125 µg/mL
COc1ccc(Cn2cc(/C=N/Nc3nncs3)c3ccccc32)cc1 ; method: broth dilution ; conditions: 48 h ; read-out: MIC100 ; strain: 1173P2 ; result: 3.91 µg/mL
COC(=O)C(C)c1ccc2[nH]c3ccc(Cl)cc3c2c1 ; method: resazurin / visual reading / absorbance ; read-out: MIC99 ; result: 31.3 µg/mL
CC(=O)OC(C)=O ; method: resazurin ; conditions: 24 h ; read-out: MIC ; strain: 1173P2 ; result: 250 µg/mL
COC(=O)[C@@H]1[C@H](O)[C@H](C)C(O)[C@H](C)/C=C\C=C(/C)C(=O)Nc2c(C)c(OC(C)=O)c3c(c2O)C(=O)C(C)=C2OCOC(=C23)/C(C)=C/[C@@](C)(O)[C@H](O)[C@@H](C)[C@H]1OC(C)=O ; read-out: MIC ; strain: Pasteur ; result: 25 µM
C#Cc1ccccc1 ; method: resazurin ; conditions: 24 h ; read-out: MIC ; strain: 1173P2 ; result: 3.87 µg/mL
Cc1ccc(Cn2cc(/C=N/Nc3nncs3)c3ccccc32)cc1 ; method: broth dilution ; conditions: 48 h ; read-out: MIC100 ; strain: 1173P2 ; result: 125 µg/mL
C/C(=N\Nc1ccc2ccccc2n1)c1ccccc1O ; read-out: MIC ; strain: Pasteur ; result: >100 µM
CCCn1cc(/C=N/Nc2nncs2)c2ccccc21 ; method: broth dilution ; conditions: 24 h ; read-out: MIC100 ; strain: 1173P2 ; result: 250 µg/mL
c1ccc(/C(=N/Nc2nc3ccccc3s2)c2ccccn2)cc1 ; read-out: MIC ; strain: Pasteur ; result: >100 µM

Again, the opening 2 rows:

SMILES,method,conditions,read-out,strain,result
CCn1cc(/C=N/Nc2nncs2)c2ccccc21,broth dilution,48 h,MIC100,1173P2,250 µg/mL
COC(=O)Cc1cccc2[nH]c3ccc(Cl)cc3c12,resazurin / visual reading / absorbance,-,MIC99,-,>500 µg/mL